Anti-infective test results gathered from many reports (values: NIAID ChemDB through PubChem).

Shared fields: tests in culture; species: Hepatitis B virus

Neighbouring rows are from separate reports. ECn is the concentration giving n% inhibition of infection, replication or growth. Two numbers with a dash give a range or band. An empty or dashed field is not shown. Inhibition is in % at the dose shown (toxicity tests: loss of growth or viability).

smiles,strain or isolate,cells,method,measure,tested at,value
CCc1cn([C@@H]2O[C@H](CO)[C@@H](O)[C@@H]2F)c(=O)[nH]c1=O,,HepG2.2.15,,EC90,,87 µM
CCC(=O)c1ccc(O)c(OC)c1,,HepG2.2.15,PCR,EC50,,482 µM
Nc1ccn([C@@H]2CS[C@H](CO)O2)c(=O)n1,,AD38,,EC90,,0.24 µM
Nc1ncnc2c1ncn2CCP(=O)(O)O,,HB611,,EC50,,>400 µM
Nc1nc(=O)n([C@H]2CC[C@@H](CO)O2)cc1F,,HepG2.2.15,,EC90,,57 µM
Cc1cn([C@H]2C[C@H](N=[N+]=[N-])[C@@H](CO)O2)c(=O)[nH]c1=O,,AD38,,EC90,,>10 µM
COc1cc2ccc(=O)oc2cc1O,,HepG2.2.15,ELISA / antigen,EC50,,885 µM
CCC(CCC(C)C1CCC2C3C[C@@H](O)[C@@]4(O)C[C@@H](O)CCC4(C)C3CCC12C)C(C)C,,HepG2 2.2.15,antigen,inhibition,12.5 µg/mL,21.2%
O=c1[nH]c(=O)n([C@@H]2O[C@H](CO)[C@@H](O)[C@@H]2F)cc1I,,HepG2.2.15,,EC90,,24 µM
Nc1nc2c(ncn2CC(CF)OCP(=O)(O)O)c(=O)[nH]1,,HB611,,EC50,,<16 µM
COC(=O)c1cn([C@@H]2C[C@H](CO)C[C@H]2O)nn1,,AD38,,EC90,,>10 µM
O=C1C[C@@H](c2ccc(O)cc2)Oc2cc(OC3O[C@H](CO)[C@@H](O)[C@H](O)[C@H]3O)cc(O)c21,,HepG2.2.15,ELISA / antigen,EC50,,390 µM
CO[C@H]1O[C@@H](n2ccc(=O)[nH]c2=O)C[C@@H]1N=[N+]=[N-],,HepG2.2.15,,EC90,,>100 µM
COc1ccc(Sc2nc(N)nc3c2ncn3CCOCP(=O)(OCC(F)(F)F)OCC(F)(F)F)cc1,WILD TYPE,Huh7,,EC50,,0.027 µM
NC(=O)c1cn([C@@H]2C[C@H](CCP(=O)(O)O)C[C@H]2O)nn1,,AD38,,EC90,,>10 µM
Nc1ncnc2c1ncn2CCOCP(=O)(O)O,Mutation L526M,HepG2,,EC50,,0.09 µM
Nc1nc(=O)n([C@@H]2O[C@H](CO)[C@@H](O)[C@@H]2F)cc1I,,HepG2.2.15,,EC90,,34 µM
Nc1nc(=O)n([C@@H]2C=C[C@H](CO)O2)cc1F,WILD TYPE,HepG2,,inhibition,0.001 µM,58%
NC(=O)c1nnn([C@@H]2C[C@H](CCP(=O)(O)O)C[C@H]2O)c1N,,AD38,,EC90,,>10 µM
Nc1nc(=O)n([C@H]2O[C@@H](CO)C=C2F)cc1F,RTM204,HepAD38,,EC90,,0.63 µM
O=c1[nH]c(=O)n(C[C@@H](CO)OCP(=O)(O)O)cc1F,,HB611,,EC50,,200 µM
Nc1nc(=O)n([C@@H]2CS[C@H](CO)O2)cc1F,RTM204,HepAD38,,EC90,,1.16 µM
CCOC(=O)/C=C/c1ccc(O)c(O)c1,,HepG2.2.15,ELISA / antigen,EC50,,<52.79 µM
Nc1ncnc2c1ncn2CCOCP(=O)(O)O,RTM204,HepAD38,,EC90,,>10 µM
Nc1nc(N)c2ncn([C@H]3CC[C@@H](CO)O3)c2n1,,HepG2.2.15,,EC90,,42 µM
Nc1ccn(C[C@@H](CO)OCP(=O)(O)O)c(=O)n1,,HB611,,EC50,,29 µM
COC(=O)CC1COP(=O)(CO[C@H](C)Cn2cnc3c(N)ncnc32)OC1,Genotype D,HepaRG,PCR,inhibition,1 µM,≤30%
Nc1nc(=O)n([C@H]2CS[C@@H](CO)O2)cc1F,RTM204,HEPAD79,,EC90,,>10 µM
Nc1nc(N)c2ncn(C[C@@H](CO)OCP(=O)(O)O)c2n1,,HepG2 2.2.15,hybridisation,EC90,,1.3 µM
CCOC(=O)CC1COP(=O)(CO[C@H](C)Cn2cnc3c(NC(=O)CC)ncnc32)OC1,Genotype D,PHH,PCR,inhibition,1 µM,≤30%
CCOC(=O)/C=C/c1ccc(O)cc1,,HepG2.2.15,ELISA / antigen,EC50,,803 µM
Nc1ccn([C@H]2O[C@@H](CO)C=C2F)c(=O)n1,RTM204,HEPAD79,,EC90,,>10 µM
CCCCCCOC(=O)CC1COP(=O)(CO[C@H](C)Cn2cnc3c(N)ncnc32)OC1,Genotype D,PHH,PCR,inhibition,1 µM,≤30%
C[C@H](Cn1cnc2c(N)ncnc21)OCP(=O)(O)O,,HepG2 2.2.15,hybridisation,EC90,,10 µM
COc1cc2oc(=O)ccc2cc1O,,HepG2.2.15,ELISA / antigen,EC50,,1210 µM
Cc1cn([C@H]2O[C@@H](CO)[C@H](O)[C@H]2F)c(=O)[nH]c1=O,DUAL,,,EC50,,>100 µM
[N-]=[N+]=N[C@H]1C[C@H](n2cc(Cl)c(=O)[nH]c2=O)O[C@@H]1CO,,HepG2.2.15,,EC90,,>100 µM
Nc1ncnc2c1ncn2CCOCP(=O)(O)O,WILD TYPE,HepG2,,inhibition,0.05 µM,49%
Nc1ncnc2c1ncn2CCOCP(=O)(O)O,M550I,,,EC50,,2.7 µM
C[C@H](Cn1cnc2c(N)ncnc21)OCP1(=O)OCC(CCC(=O)OC2CCCC2)CO1,Genotype D,HepaRG,PCR,inhibition,1 µM,50–80%
O=c1[nH]cnc2c1ncn2[C@H]1CC[C@@H](CO)O1,,HepG2.2.15,,EC90,,127 µM

6 of the rows above, restated:

smiles,strain or isolate,cells,method,measure,tested at,value
O=c1[nH]c(=O)n(C[C@@H](CO)OCP(=O)(O)O)cc1F,,HB611,,EC50,,200 µM
CCOC(=O)/C=C/c1ccc(O)cc1,,HepG2.2.15,ELISA / antigen,EC50,,803 µM
COC(=O)c1cn([C@@H]2C[C@H](CO)C[C@H]2O)nn1,,AD38,,EC90,,>10 µM
Nc1ncnc2c1ncn2CCOCP(=O)(O)O,WILD TYPE,HepG2,,inhibition,0.05 µM,49%
Cc1cn([C@H]2O[C@@H](CO)[C@H](O)[C@H]2F)c(=O)[nH]c1=O,DUAL,,,EC50,,>100 µM
Nc1ccn(C[C@@H](CO)OCP(=O)(O)O)c(=O)n1,,HB611,,EC50,,29 µM